Reference: patent US7544773 (dated 2009)

Biological target: Caf1M periplasmic chaperone (Yersinia pestis, UniProt P26926 24-258)
Experiment: IEF of periplasmic extracts, immunoblot with anti-Caf1M and anti-Caf1

B1: Caf1 subunit (capsular F1 antigen subunit) (other)
chain: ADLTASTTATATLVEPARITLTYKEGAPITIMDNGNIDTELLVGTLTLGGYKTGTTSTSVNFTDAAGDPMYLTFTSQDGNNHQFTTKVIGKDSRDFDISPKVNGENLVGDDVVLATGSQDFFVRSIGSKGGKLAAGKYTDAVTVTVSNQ
B1: binds.
